Measured values from several laboratories, pooled; numbers as filed in NIAID ChemDB.

All rows: tests in culture; species: Hepatitis B virus; read by: PCR; read-out: EC50

Two numbers with a dash give a range or band.

N#Cc1cc(C(=O)N2CCS(=O)(=O)[C@@](F)(c3ncc(Cc4ccccc4)s3)C2)ccc1Br ; cell line: HepG2.117 ; value: <0.1 µM
C[C@@H]1Cc2nn3c(c2CN1C(=O)c1ccc(Cl)c(C#N)c1)C(=O)N([C@@H](C)c1cccc(OC(F)F)c1)CC3 ; cell line: HepG2.117 ; value: 0.04 µM
Cn1cnc(-c2ccc([C@@H]3CN(C(=O)c4ccc(Br)c(Cl)c4)CCS3(=O)=O)s2)c1 ; cell line: HepG2.2.15 ; value: 0.1–0.5 µM
C[C@@H](NC(=O)c1c2n(c(=O)n1-c1ccc(OC3CC3)cc1)C[C@H](C)N(C(=O)c1ccc(Br)c(Cl)c1)C2)c1ccccc1 ; cell line: HepG2.117 ; value: 0.1–0.5 µM
CC(=O)Nc1cccc([C@H](C)N2CCn3nc4c(c3C2=O)CN(C(=O)c2ccc(Cl)c(Cl)c2)[C@H](C)C4)c1 ; cell line: HepG2.117 ; value: 0.024 µM
O=C(c1ccc(Cl)c(F)c1)N1CCS(=O)(=O)[C@H](c2cccs2)C1 ; cell line: HepG2.117 ; value: 0.5–5 µM
O=C1NC(=O)/C(=C/c2ccc(-c3ccc(Oc4ccccc4)cc3)cc2)S1 ; strain or isolate: Genotype D ; cell line: HepG2-NTCP ; value: >10 µM
Cc1c(C(=O)N2Cc3c(nn4c3C(=O)N([C@H](C)c3ccc(OC(F)F)cc3)CC4)C[C@H]2C)ccc(Cl)c1C#N ; cell line: HepG2.117 ; value: 0.07 µM
O=C1NC(=O)/C(=C/c2ccc(-c3ccc(C#Cc4ccccc4)cc3)cc2)S1 ; strain or isolate: Genotype D ; cell line: HepG2-NTCP ; value: >10 µM
CC(=O)Nc1ccc([C@@H](C)N2CCn3nc4c(c3C2=O)CN(C(=O)c2ccc(Cl)c(Cl)c2)[C@H](C)C4)cc1 ; cell line: HepG2.117 ; value: 0.014 µM
O=C1NC(=O)/C(=C/c2ccc(-c3ccc4c5ccccc5c5ccccc5c4c3)cc2)S1 ; strain or isolate: Genotype D ; cell line: HepG2-NTCP ; value: 7.8 µM
CCn1c(C)c2c(c1C(=O)Nc1ccc(F)c(C)c1)CCC(C)(C)NC2=O ; cell line: HepAD38 ; value: <0.05 µM
O=C1NC(=O)/C(=C/c2ccc(-c3ccc(-c4cccnc4)cc3)cc2)S1 ; strain or isolate: Genotype D ; cell line: HepG2-NTCP ; value: >10 µM
O=C(NCc1ccccc1-c1ncco1)c1c2n(c(=O)n1-c1ccc(OCC(F)(F)F)cc1)CCN(C(=O)c1ccc(Br)c(Cl)c1)C2 ; value: 0.1–0.5 µM
C=C[C@H](C)Nc1nc2c(c(=O)n1-c1ccc(C(=O)N(C)C(=O)OCOC(=O)[C@@H](N)C(C)C)cc1)C[C@@H](C)N(C(=O)c1ccc(Br)c(C(F)(F)F)c1)C2 ; strain or isolate: Genotype D ; cell line: HepG2.117 ; value: <0.05 µM
C=C1c2c(c(C)n(C)c2C(=O)Nc2ccc(F)c(C)c2)C(=O)NC1C ; cell line: HepAD38 ; value: 0.5–1 µM
C[C@@H]1CS(=O)(=O)[C@@H](c2cccs2)CN1C(=O)Nc1ccc(F)c(Cl)c1 ; cell line: HepG2.2.15 ; value: >5 µM
COc1ccc(-n2c(C(=O)NCc3ncccn3)c3n(c2=O)CCN(C(=O)c2ccc(Br)c(Cl)c2)C3)cc1 ; cell line: HepG2.117 ; value: >5 µM
C=C[C@H](C)Nc1nc2c(c(=O)n1-c1ccc(C(=O)N(C)CO)cc1)C[C@@H](C)N(C(=O)c1ccc(Br)c(C(F)(F)F)c1)C2 ; strain or isolate: Genotype D ; cell line: HepG2.117 ; value: <0.05 µM
N#Cc1cc(C(=O)N2CCS(=O)(=O)[C@@](F)(c3ncc(Cc4ccccc4-c4ncccn4)s3)C2)ccc1Br ; cell line: HepG2.117 ; value: <0.1 µM
Cc1cc(NC(=O)c2c3c(c(C)n2C)C(=O)NC(C)CC3)ccc1F ; cell line: HepAD38 ; value: <0.5 µM
CCCCCCCCCCCC(=O)Nc1nc(N)nc2c1ncn2[C@H]1CO[C@@H](COP(=O)(N[C@@H](C)C(=O)OCC)Oc2ccccc2)O1 ; cell line: HepAD38 ; value: 0.34 µM
C[C@@H]1Cc2nn3c(c2CN1C(=O)c1ccc(Cl)c(C#N)c1)C(=O)N([C@@H](C)c1ccc(S(F)(F)(F)(F)F)cc1)CC3 ; cell line: HepG2.117 ; value: 0.065 µM
C=C[C@H](C)Nc1nc2c(c(=O)n1-c1ccc(C(=O)N(C)C(=O)OCOP(=O)(O)O)cc1)C[C@@H](C)N(C(=O)c1ccc(Br)c(C(F)(F)F)c1)C2 ; strain or isolate: Genotype D ; cell line: HepG2.117 ; value: <0.05 µM
O=C(c1ccc(Br)c(Cl)c1)N1CCS(=O)(=O)C(c2nccs2)C1 ; cell line: HepG2.117 ; value: 0.1–0.5 µM
CCCCCC(=O)Nc1nc(N)nc2c1ncn2[C@H]1CO[C@@H](COP(=O)(N[C@@H](C)C(=O)OCC)Oc2ccccc2)O1 ; cell line: HepAD38 ; value: 1.3 µM
C[C@@H]1Cc2nn3c(c2CN1C(=O)c1ccc(Cl)c(C#N)c1)C(=O)N([C@@H](C)c1cccc(NS(C)(=O)=O)c1)CC3 ; cell line: HepG2.117 ; value: 0.24 µM
CCCCCCCC(=O)Nc1nc(N)nc2c1ncn2[C@H]1CO[C@@H](COP(=O)(N[C@@H](C)C(=O)OCC)Oc2ccccc2)O1 ; cell line: HepAD38 ; value: 0.55 µM
C=C[C@H](C)Nc1nc2c(c(=O)n1-c1ccc(C(=O)N(C)C(=O)O[C@@H](OC(=O)[C@@H](N)C(C)C)C(C)C)cc1)C[C@@H](C)N(C(=O)c1ccc(Br)c(C(F)(F)F)c1)C2 ; strain or isolate: Genotype D ; cell line: HepG2.117 ; value: <0.05 µM
C[C@@H]1Cc2nn3c(c2CN1C(=O)c1ccc(Cl)c(C#N)c1)C(=O)N(Cc1ccc2n[nH]nc2c1)CC3 ; cell line: HepG2.117 ; value: 0.56 µM
Cc1cc(NC(=O)c2c3c(n(C)c2C)C(=O)NC(C)CC3)ccc1F ; cell line: HepAD38 ; value: <0.05 µM
CC(C)Oc1ccc(-n2c(C(=O)NCc3ccccc3)c3n(c2=O)CCN([C@@H](c2ccc(Br)c(Cl)c2)C(F)(F)F)C3)cc1 ; cell line: HepG2.117 ; value: >5 µM
Cc1c2c(c(C(=O)Nc3ccc(F)c(C(F)F)c3)n1C)CCC(C)(C)NC2=O ; cell line: HepAD38 ; value: <0.05 µM
O=C(NCc1ccc(OC2COC2)cc1F)c1c2n(c(=O)n1-c1ccc(OCC(F)(F)F)cc1)CCN(C(=O)c1ccc(Br)c(Cl)c1)C2 ; cell line: HepG2.117 ; value: 0.1–0.5 µM
N#Cc1cc(C(=O)N2CCS(=O)(=O)[C@](F)(c3ncc(Cc4ccccc4)s3)C2)ccc1Br ; cell line: HepG2.117 ; value: 0.5–5 µM
NC(=O)COc1ccc(CNC(=O)c2c3n(c(=O)n2-c2ccc(OCC(F)(F)F)cc2)CCN(C(=O)c2ccc(Br)c(Cl)c2)C3)c(F)c1 ; cell line: HepG2.117 ; value: 0.5–5 µM
Cc1cccc(NC(=O)c2c3c(c(C)n2C)C(=O)N[C@@H](C)C3)c1F ; cell line: HepAD38 ; value: 0.5–1 µM
C[C@H](NC(=O)c1c2n(c(=O)n1-c1ccc(OC3CC3)cc1)C[C@H](C)N(C(=O)c1ccc(Br)c(Cl)c1)C2)c1ccccc1F ; cell line: HepG2.117 ; value: 0.1–0.5 µM
CCOC(=O)[C@H](C)NP(=O)(OC[C@@H]1OC[C@H](n2cnc3c(NC(C)=O)nc(N)nc32)O1)Oc1ccccc1 ; cell line: HepAD38 ; value: 9.3 µM

A second listing of 5 rows from above:

smiles	strain or isolate	cell line	value
N#Cc1cc(C(=O)N2CCS(=O)(=O)[C@@](F)(c3ncc(Cc4ccccc4)s3)C2)ccc1Br		HepG2.117	<0.1 µM
C=C[C@H](C)Nc1nc2c(c(=O)n1-c1ccc(C(=O)N(C)CO)cc1)C[C@@H](C)N(C(=O)c1ccc(Br)c(C(F)(F)F)c1)C2	Genotype D	HepG2.117	<0.05 µM
CCOC(=O)[C@H](C)NP(=O)(OC[C@@H]1OC[C@H](n2cnc3c(NC(C)=O)nc(N)nc32)O1)Oc1ccccc1		HepAD38	9.3 µM
CCCCCC(=O)Nc1nc(N)nc2c1ncn2[C@H]1CO[C@@H](COP(=O)(N[C@@H](C)C(=O)OCC)Oc2ccccc2)O1		HepAD38	1.3 µM
N#Cc1cc(C(=O)N2CCS(=O)(=O)[C@@](F)(c3ncc(Cc4ccccc4-c4ncccn4)s3)C2)ccc1Br		HepG2.117	<0.1 µM

Lines come from different laboratories, so protocols vary. ECn is the concentration giving n% inhibition of infection, replication or growth. An empty or dashed field is not shown.